Anti-infective test results gathered from many reports (values: NIAID ChemDB through PubChem).

All rows: host cell toxicity; endpoint: CC50

a–b is a range or a potency band. CCn: concentration that lowers growth or viability of the cells by n%. Rows are shuffled and stem from different studies. Blank or dashed fields: not listed here.

compound	cell line	method	value
Cc1cccc2c1OP(=O)(OC[C@H]1O[C@@H](n3cc(/C=C/Br)c(=O)[nH]c3=O)C[C@@H]1OC(=O)[C@H](N)Cc1ccccc1)OC2	HELF		119 µg/mL
NC12CC3CC(CC(C3)C1)C2	161-Br		40–1000 µM
CO[C@H]1/C=C/O[C@@]2(C)Oc3c(C)c(O)c4c(O)c(c(/C=N/N5CCN(C)CC5)c(O)c4c3C2=O)NC(=O)/C(C)=C\C=C\[C@H](C)[C@H](O)[C@@H](C)[C@@H](O)[C@@H](C)[C@H](OC(C)=O)[C@@H]1C	Monocyte-derived macrophages	MTT	400 µg/mL
O=c1[nH]cnc2c1ncn2[C@H]1O[C@@H](CO)C[C@H]1F	PBM		>100 µM
CC(=O)Oc1ccc(/C=C/C(=O)Oc2c(-c3ccc(Cl)c(Cl)c3)oc3ccccc3c2=O)cc1OC(C)=O	KB		20 µM
Nc1ncnc2c1ncn2[C@@H]1O[C@H](CO)C[C@@H]1O	U138-MG		42.5 µg/mL
Cc1ccc(-c2nn(-c3ccccc3)cc2/C=C/c2nc3sccn3c(=O)c2-c2ccc(C#N)cc2)cc1	Monocyte-derived macrophages	MTT	367 µg/mL
CC(C)C(=O)O[C@H]1C[C@H](n2cc(/C=C/Br)c(=O)[nH]c2=O)O[C@@H]1COP1(=O)OCc2ccccc2O1	HELF		72.5 µg/mL
C=C[C@]1(C)C=C2C(=O)c3c(NC=O)cccc3C(C)(C)[C@H]2C[C@H]1O	IMR90		>100 µM
Cc1cccc(-c2nn(-c3ccccc3)cc2/C=C/c2nc3sccn3c(=O)c2-c2ccc(C#N)cc2)c1	Monocyte-derived macrophages	MTT	421 µg/mL
CCCCC1CN(C(=O)C2CCOCC2)CCC12CCN(C1(C)CCN(C(=O)c3c(C)cc(C#N)nc3C)CC1)CC2	CEM-R5		0.217 µM
NC(=S)N=Nc1c(O)n(CN2CCN(c3ccnc4cc(C(F)(F)F)ccc34)CC2)c2cc(Cl)ccc12	Human foreskin fibroblasts	MTT / absorbance	4.75 µM
Nc1ccn(C[C@@H](CO)OCP(=O)(O)O)c(=O)n1	RPTECs (clinical isolate 2)	ATP	308 µM
FC(F)(F)c1ccc2c(NCCCN3CCC(c4ccccc4)CC3)ccnc2c1	Human foreskin fibroblasts	MTT / absorbance	3 µM
C[C@H](Cn1cnc2c(N)ncnc21)OCP(=O)(O)O	RPTECs (clinical isolate 1)	ATP	>2000 µM
COc1ccc(CCC(=O)NC2N=C(c3ccccc3)c3ccccc3NC2=O)cc1	HEP-2		5 µM
CC(=O)Oc1ccc(/C=C/C(=O)Oc2c(-c3ccc(Cl)cc3)oc3ccccc3c2=O)cc1OC(C)=O	KB		57 µM
CCCCC1CN(S(C)(=O)=O)CCC12CCN(C1(C)CCN(C(=O)c3c(C)ncnc3C)CC1)CC2	CEM-R5		0.025 µM
CCOc1ccccc1C(=O)NC1N=C(c2ccccc2)c2ccccc2NC1=O	HEP-2		0.7 µM
COc1cc(C(=O)Oc2c(-c3ccc(Cl)cc3)oc3ccccc3c2=O)cc(OC)c1OC(C)=O	KB		6.5 µM
Nc1ncc2c(ncn2COC(CO)CO)n1	P3HR-1		0.3 µg/mL
O=c1[nH]c(=O)n([C@H]2C[C@H](O)[C@@H](COP3(=O)OCc4cc(Cl)ccc4O3)O2)cc1/C=C/Br	HELF		>128 µg/mL
Cc1cn([C@H]2C[C@H](N=[N+]=[N-])[C@@H](CO)O2)c(=O)[nH]c1=O	PBM		>100 µM
Nc1ccn([C@H]2CC[C@@H](CO)O2)c(=O)n1	BFU-E		0.05 µM
CC(=O)c1c(O)c(C)c(O)c2c1OC1=CC(=O)/C(=C(/C)NCCC3=CNC4C=CC=CC34)C(=O)[C@@]12C	L6	resazurin	157.1 µM
CCC(C)C(N)C(=O)O[C@H]1C[C@H](n2cc(/C=C/Br)c(=O)[nH]c2=O)O[C@@H]1COP1(=O)OCc2cccc(C)c2O1	HELF		58.5 µg/mL
Nc1nc(=O)n([C@H]2O[C@@H](CO)C[C@H]2F)cc1Br	PBM		>100 µM
Nc1ccn(C[C@@H](CO)OCP(=O)(O)O)c(=O)n1	H4		45 µg/mL
COc1nc(OC(F)(F)F)c(NC(=O)C2CCC3C4CN(C(=O)OC(C)(C)C)C5=CC(=O)CC[C@]5(C)C4CC[C@]23C)cc1Br	hERG	ATP / luminescence	>30 µM
O=P(O)(O)COCCn1cnc2c(N3CCCC3)ncnc21	P3HR-1		>100 µg/mL
COc1cc(/C=C/C(=O)Oc2c(-c3ccc(Cl)cc3)oc3ccccc3c2=O)ccc1OC(C)=O	KB		19 µM
Nc1ccn([C@@H]2CC[C@H](CO)O2)c(=O)n1	Macrophage		90 µM
NC(=S)N=Nc1c(O)n(CN2CCN(c3ccnc4cc(C(F)(F)F)ccc34)CC2)c2cccc(Br)c12	Human foreskin fibroblasts	MTT / absorbance	5.75 µM
O=C(Nc1cccc(F)c1)NC1N=C(c2ccccc2)c2ccccc2NC1=O	HEP-2		6.1 µM
Nc1nc2c(ncn2[C@@H]2O[C@H](CO)[C@H]2CO)c(=O)[nH]1	P3HR-1		4.9 µg/mL
CC(=O)c1c(O)c(C)c(O)c2c1OC1=CC(=O)/C(=C(/C)NCc3ccccc3)C(=O)[C@@]12C	L6	resazurin	>208 µM
FC(F)(F)c1ccc2c(NCCCN3CCN(c4ccnc5cc(C(F)(F)F)ccc45)CC3)ccnc2c1	Human foreskin fibroblasts	MTT / absorbance	1.75 µM
O=C(Cc1ccc([N+](=O)[O-])cc1)NC1N=C(c2ccccc2)c2ccccc2NC1=O	VERO		1 µM
CC[C@@]1(O)C(=O)OCc2c1cc1n(c2=O)Cc2cc3ccccc3nc2-1	NCI-H460		0.002 µM
Nc1ncnc2c1ncn2[C@@H]1O[C@H](OCP(=O)(O)O)C=C1F	RPTECs (clinical isolate 1)	ATP	>2000 µM
O=C(Nc1ccc(Br)cc1C(F)(F)F)NC1N=C(c2ccccc2)c2ccccc2NC1=O	HEP-2		6 µM
C[C@@H](N)C(=O)O[C@H]1C[C@H](n2cc(/C=C/Br)c(=O)[nH]c2=O)O[C@@H]1COP1(=O)OCc2ccccc2O1	HELF		>128 µg/mL
Nc1ncnc2c1ncn2[C@H]1O[C@@H](CO)C[C@H]1F	PBM		>100 µM
C=CCNc1ncnc2c1ncn2C[C@@H](C)OCP(=O)(O)O	P3HR-1		22 µg/mL
O=c1c(O)c(-c2ccc(Cl)cc2)oc2ccccc12	KB		9.4 µM
CC(=O)c1c(O)c(C)c(O)c2c1OC1=CC(=O)/C(=C(/C)NCCCC(=O)O[C@@H]3O[C@@H]4OCC5(C)CC6[C@H](C)CC[C@@H]([C@H]3C)[C@]64OO5)C(=O)[C@@]12C	L6	resazurin	0.816 µM
O=C1C(=O)N(CCCNc2ccnc3cc(Cl)ccc23)c2cc(Cl)ccc21	Human foreskin fibroblasts	MTT / absorbance	5.25 µM
CC(=O)c1c(O)c(C)c(O)c2c1OC1=CC(=O)/C(=C(/C)NCC(=O)O)C(=O)[C@@]12C	L6	resazurin	165.3 µM
NC(=NC1CCC1)c1ccc(-c2ccc(-c3ccc(C(N)=NC4CCC4)cc3)o2)cc1	A2780 ovarian carcinoma		11 µM
CC[C@H](C)[C@H](N)C(=O)O[C@H]1C[C@H](n2cc(/C=C/Br)c(=O)[nH]c2=O)O[C@@H]1COP1(=O)OCc2cccc(C)c2O1	HELF		54.4 µg/mL